Measured values from several laboratories, pooled; numbers as filed in NIAID ChemDB.

All rows: tests in culture; species: Herpes simplex virus 1

Two numbers with a dash give a range or band. ECn is the concentration giving n% inhibition of infection, replication or growth. Blank or dashed fields: not listed here. Neighbouring rows are from separate reports.

SMILES	read by	strain	measure	cells	result
CCOC(=O)c1cc(C(=O)O)c(=O)n2c1[nH]c1ccccc12	plaque count	KOS	EC50	HEF	7.3 µg/mL
Nc1nc(N)c2ncn(COCCO)c2n1	plaque count	ICI	EC50	VERO	10.5 µM
Nc1ccn([C@@H]2O[C@H](CO)[C@@H](O)[C@@H]2O)c(=O)n1		CUT	MIC		2.2–4.4 µg/mL
Cc1c(NC(=O)OC(C)(C)C)ccc2nc(N3CCCC[C@H]3C(=O)NCc3cccnc3)oc(=O)c12	plaque count		EC90	VERO	>12.5 µM
COC(=O)[C@]1(C)CCC[C@]2(C)c3ccc4[nH]cnc4c3CCC12	plaque count		EC50	E6SM	>4 µg/mL
N#Cc1cc(C(=O)O)c(=O)n2c1[nH]c1ccccc12	plaque count	KOS	EC50	HEF	>40 µg/mL
O=c1[nH]c(=O)n([C@H]2C[C@H](O)[C@@H](COP(=O)([O-])OP(=O)([O-])OC[C@@H]3OC(O)[C@H](O)[C@H](O)[C@H]3O)O2)cc1I	cytopathic effect	KOS	EC50	PRK	0.4 µg/mL
CC(C)(C)NC(=O)CN(C(=O)[C@H]1CC[C@@]2(C)C3CC=C4C[C@@H](O)CC[C@]4(C)C3CC[C@]12C)c1ccc(F)cc1	plaque count	KOS	EC50	Vero cells	12 µM
Nc1nc(=O)n([C@@H]2O[C@H](CO)[C@@H](O)[C@@H]2F)cc1I	cytopathic effect	KOS	EC50	HSF	0.02 µg/mL
CC(=O)[C@H]1CCC2C3CC4CC[C@@]5(CCC(=O)C=C45)C3CC[C@@]21C	cytopathic effect	KOS	EC50	BHK-21	13.9 µM
Nc1nc2c(ncn2COCCO)c(=O)[nH]1	cytopathic effect	KOS	EC50	HeLa	1 µg/mL
COC(=O)[C@]1(C)CCC[C@]2(C)c3cc(Br)c4nc[nH]c4c3CCC12	plaque count		EC50	E6SM	>4 µg/mL
Cc1c(NC(=O)C2CCC2)ccc2nc(NC(C)(C)C(=O)N(C)CCc3ccccn3)oc(=O)c12	plaque count		EC90	VERO	12.5 µM
Cc1cn([C@@H]2O[C@H](COP(=O)(O)O)[C@@H](O)[C@@H]2O)c(=O)[nH]c1=O	cytopathic effect	VR-3	EC50	HELF	1 µg/mL
Nc1nc2c(ncn2COCCO)c(=O)[nH]1	plaque count	ICI	EC50	VERO	1.5 µM
CC[C@@H](C(C)C)[C@@H](O)[C@H](O)[C@@H](C)[C@H]1CC[C@H]2[C@@H]3CC(=O)[C@H]4C[C@@H](OC(C)=O)CC[C@]4(C)[C@H]3CC[C@]12C	plaque count	F	EC50	VERO	22.4 µM
Nc1nc2c(ncn2CCCC(CO)CO)c(=O)[nH]1	cytopathic effect / ELISA	R35	EC50	HEL	0.7 µM
CC[C@@H](C(C)C)[C@H](O)[C@@H](O)[C@@H](C)[C@H]1CC[C@H]2[C@@H]3CC(=O)[C@H]4C[C@@H](Br)CC[C@]4(C)[C@H]3CC[C@]12C	plaque count	B2006 (TK-)	EC50	VERO	42.6 µM
Nc1nc2c(ncn2COC(CO)CO)c(=O)[nH]1	PCR	98-350	EC50		0.2 µM
Nc1nc(=O)n([C@H]2C[C@H](O)[C@@H](CO)O2)cc1/C=C/Br	cytopathic effect	KOS	EC50	Primary rabbit kidney cells	0.07 µg/mL
Cc1c(NC(=O)OC(C)(C)C)ccc2nc(N(CCc3ccccc3)C(=O)NCc3cccnc3)oc(=O)c12	plaque count		EC90	VERO	23.8 µM
Nc1ncnc2c1ncn2COCCO	plaque count	ICI	EC50	VERO	40 µM
Cc1c(NC(=O)OC(C)(C)C)ccc2nc(NC3(C(=O)N(C)CCc4ccncc4)CC3)oc(=O)c12	plaque count		EC90	VERO	>12.5 µM
CCN(CC)CCCOc1c2ccoc2cc2oc(=O)ccc12	plaque count	Clinical isolate	EC50	VERO	3.5 µg/mL
O=c1[nH]c(=O)n([C@H]2C[C@H](O)[C@@H](CO)O2)cc1/C=C/Br	cytopathic effect	KOS	EC50	ESM	0.007 µg/mL
O=c1[nH]c(=O)n([C@H]2C[C@H](O)[C@@H](CO)O2)cc1I	cytopathic effect	B2006 (TK-)	EC50	E6SM	10 µg/mL
CC(=O)OC(C)[C@H]1CCC2C3CC=C4C[C@@H](OC(C)=O)CC[C@]4(CO)C3CC[C@@]21C	cytopathic effect	KOS	EC50	BHK-21	19.6 µM
Nc1ncc2c(ncn2COC(CO)CO)n1	cytopathic effect	KOS	EC50		0.2 µg/mL
O=c1[nH]c(=O)n([C@H]2C[C@H](O)[C@@H](CO)O2)cc1I	cytopathic effect	KOS	EC50	T-21	0.08 µg/mL
COC(=O)[C@]1(C)CCC[C@]2(C)c3ccc4[nH]c(C(F)(F)F)nc4c3CCC12	plaque count		EC50	E6SM	>4 µg/mL
CCN(C(=O)C(C)(C)Nc1nc2ccc(NC(=O)OC(C)(C)C)c(C)c2c(=O)o1)c1cccnc1	plaque count		EC90	VERO	>12.5 µM
Nc1nc2c(ncn2COC(CO)CO)c(=O)[nH]1	cytopathic effect / ELISA	R35	EC50	HEL	0.4 µM
CC[C@@H](C(C)C)[C@@H](O)[C@H](O)[C@@H](C)[C@H]1CC[C@H]2[C@@H]3CC(=O)[C@@]4(O)C[C@H](O)[C@H](O)C[C@]4(C)[C@H]3CC[C@]12C	plaque count	F	EC50	VERO	>40.4 µM
COC(=O)[C@]1(C)CCC[C@]2(C)c3cc(Br)c4nc(C(F)(F)F)[nH]c4c3CCC12	plaque count		EC50	E6SM	>4 µg/mL
Cc1nc(N(C)C(=O)Cc2ccc(-c3ccccn3)cc2)sc1S(N)(=O)=O	plaque count	KD2	EC50	VERO	0.04 µM
N#Cc1cc(NC(=O)c2ccccc2)c(=O)n2c1[nH]c1ccccc12	plaque count	KOS	EC50	HEF	>8 µg/mL
CC[C@@H](C(C)C)[C@@H](O)[C@H](O)[C@@H](C)[C@H]1CC[C@H]2[C@@H]3CC(=O)[C@H]4C[C@H](O)[C@H](O)C[C@]4(C)[C@H]3CC[C@]12C	plaque count	F	EC50	VERO	41.3 µM
Nc1nc2c(ncn2CC(CO)CCO)c(=O)[nH]1	cytopathic effect / ELISA	R35	EC50	HEL	4.6 µM
O=P(O)(O)OC[C@H]1OC(O)[C@@H](O)[C@@H](O)[C@@H]1O	cytopathic effect		EC50	E6SM	>400 µg/mL
COc1cc(NC(=O)c2ccccc2F)cc(C)c1NC(=S)NC(C)c1ccc(F)cc1	ELISA		EC50	VERO	>10 µg/mL
CCc1cn([C@@H]2O[C@H](CO)[C@@H](O)[C@@H]2F)c(=O)[nH]c1=O	plaque count	F	EC50	VERO	0.024 µM
CC(C)(C)NC(=O)CN(C(=O)[C@H]1CC[C@@]2(C)C3CC=C4C[C@@H](O)CC[C@]4(C)C3CC[C@]12C)c1ccccc1Cl	plaque count	KOS	EC50	Vero cells	12.8 µM
Cc1c(NC(=O)c2ccccc2[N+](=O)[O-])ccc2nc(NC(C)(C)C(=O)N(C)CCc3ccccn3)oc(=O)c12	plaque count		EC90	VERO	>12.5 µM
Nc1ccn([C@@H]2O[C@H](CO)[C@@H](O)[C@@H]2O)c(=O)n1	plaque count	ICI	EC50	VERO	0.2 µM
CC[C@@H](C(C)C)[C@H](O)[C@@H](O)[C@@H](C)[C@H]1CC[C@H]2[C@@H]3CC(=O)[C@@]4(O)C[C@@H](Br)CC[C@]4(C)[C@H]3CC[C@]12C	plaque count	B2006 (TK-)	EC50	VERO	53.8 µM
Nc1nc2c(ncn2CCC(O)CO)c(=O)[nH]1	cytopathic effect / ELISA	R35	EC50	HEL	4.3 µM
CC(=O)/C=C/[C@]12CC[C@H](OC(C)=O)CC1=CCC1C2CC[C@@]2(C)C1CC[C@@H]2C(C)OC(C)=O	cytopathic effect	KOS	EC50	BHK-21	4.77 µM